Record: PubChem BioAssay AID504761 (Drosophila RNAi Screening Center, 2011)
The deposit covers about 22,000 reagents; below is an unselected part of those that have a named target and a result. In the full data, 116 (0.52%) were called active. 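Calls depend on retest data that are not deposited; infection was ranked per plate without normalising between plates; the unit of the infection score is not given.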 Entries without a mark were called inactive. The numbers tell different reagents against one gene apart. Further read-outs or replicates are left out here. No sequences are given here. Not stated in the record: the amount of reagent, the time to read-out.

Assay: 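Insect host genes that dengue virus relies on to spread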 (primary screen)
System: D.Mel-2 cells from Drosophila
Reagents: long dsRNA against Drosophila genes
Challenge: infection with dengue virus type 2; dose and infection time not stated
Detection: 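Per well on two replicate plates, imaging gave the percent of cells positive for viral envelope protein, ranked by infection, and a nuclear count of cells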
Scale: infection score: higher = more virus-infected cells
Active means: 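Very low infection ranking in both replicate wells (chance probability at most 0.065), then a retest showing infection dropped 1.5-fold or more at p below 0.05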
Meaning of the calls: active = confirmed: knock-down lowers infection; inactive = not picked or not confirmed

no.	predicted target	dsRNA no.	infection score, replicate 1
1	angel	1	5.66
2	angel	2	0.97
3	CG12517	1	0.52 (active)
4	IKKepsilon	1	2.83
5	CG7840	1	1.45
6	CG13544	1	15.6
7	CG13544	2	17.5
8	Obp19a	1	6.97
9	Lim3	1	4.89
10	Lim3	2	6.94
11	Sc2	1	10.5
12	Sc2	2	11.8
13	Exo84	1	0.74
14	Cyp4g1	1	3.22
15	Cyp4g1	2	14.2
16	CG1544	1	2.79
17	CG14454	1	5.34
18	CG14454	2	10.6
19	GATAd	1	3.77
20	OstDelta	1	13.9
21	OstDelta	2	5.91
22	Pdh	1	7.45
23	Pdh	2	4.45
24	l(2)03659	1	5.63
25	l(2)03659	2	2.04
26	CG1638	1	2.63
27	CG1638	2	12.4
28	Kif19A	1	24.3
29	Kif19A	2	1.29
30	alphaTub85E	1	1.92
31	alphaTub85E	2	14.9
32	car	1	19.5
33	car	2	8.07
34	CG5262	1	15.6
35	CG7367	1	1.53
36	CG7367	2	18.1
37	CG9514	1	1.22
38	CG9514	2	9.87
39	CG9514	3	7.6

Hits (from the list above):
predicted target	dsRNA no.	infection score, replicate 1
CG12517	1	0.52 (active)
